# Data source: PubChem BioAssay AID1259414 (Drosophila RNAi Screening Center, 2018)
# Screen: 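Genome-wide screen for host control of endosymbiont load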 (primary screen)
# Cell system: Drosophila JW18 cells infected with Wolbachia
# Reagent: long dsRNA against Drosophila genes, 0.25 µg dsRNA per well of a 384-well plate
# Time to read-out: 5 days
# Treatment: cells persistently infected with Wolbachia before knock-down; no added drug
# Measurement: 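Imaged fluorescence in situ signal for Wolbachia 23S rRNA per DAPI-counted host cell, given as a robust z-score within each plate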
# Scale: Wolbachia per cell robust z: higher = more Wolbachia per host cell than the plate typical
# Call rule: 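Hit when robust z is 1.5 or more, or -1.5 or less, in at least two of three replicates; excludes dsRNAs with several or no targets, genes not expressed in JW18 and well A1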
# In all, the deposit lists about 24,000 reagents; below is an unselected part of those that have a named target and a result. Over the whole deposit, about 1,210 (5%) are marked active. 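Inactive calls also include excluded dsRNAs with several or no targets, genes unexpressed in JW18, and well A1, regardless of score.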 No sequences are given here.
gene,DRSC id,"Wolbachia per cell robust z, rep 1","Wolbachia per cell robust z, rep 2","Wolbachia per cell robust z, rep 3",call
CG32982,DRSC02677,-1.02,0.00482,-0.589,inactive
CG32982,DRSC03269,0.0533,0.0151,0.665,inactive
CG32982,DRSC21912,-2.53,-0.824,-1.21,inactive
CG43233,DRSC40531,0.28,1.05,0.713,inactive
Prosbeta4R2 (Proteasome beta4 subunit-related 2),DRSC00503,0.7,-0.543,0.0651,inactive
Prosbeta4R2 (Proteasome beta4 subunit-related 2),DRSC28235,-0.615,0.654,0.757,inactive
Sox21a,DRSC10819,-0.103,-0.338,0.526,inactive
Sox21a,DRSC25435,1.01,1.67,0.898,inactive
Zw (Zwischenferment),DRSC20303,-0.303,0.0904,-0.444,inactive
Zw (Zwischenferment),DRSC27667,-1.38,-0.302,-0.998,inactive
CG1628,DRSC18109,0.0922,0.113,-0.616,inactive
GstT1 (Glutathione S transferase T1),DRSC06243,-3.7,0.351,-3.04,active
CG8908,DRSC07297,-0.61,-1.07,-0.0927,inactive
l(2)05287 (lethal (2) 05287),DRSC02151,-2.62,0.673,0.575,inactive
l(2)05287 (lethal (2) 05287),DRSC02152,0.636,0.645,0.89,inactive
l(2)05287 (lethal (2) 05287),DRSC26660,0.684,-0.356,-0.93,inactive
CG8543,DRSC10990,0.726,0.459,0.304,inactive
CG8543,DRSC22809,-1.52,-1.67,-0.997,inactive
CG8543,DRSC25399,0.365,0.519,-0.825,inactive
pygo (pygopus),DRSC14322,1.15,1.91,0.645,inactive
pygo (pygopus),DRSC25137,-0.186,-0.508,-0.8,inactive
ric8a,DRSC18093,-2.49,-5.96,-0.00825,active
ric8a,DRSC24387,0.0964,-7.31,1.39,inactive
fkh (fork head),DRSC16949,-0.586,0.264,-0.126,inactive
fkh (fork head),DRSC28213,0.229,0.353,0.21,inactive
CG14024,DRSC00868,-1.59,-1.15,-3.04,active
CG14024,DRSC02354,-1.6,-3.12,-1.54,active
Suv3 (Suv3 helicase),DRSC12335,-0.0757,-0.515,-0.278,inactive
SuUR (Suppressor of Under-Replication),DRSC11292,0.119,-1.28,-0.7,inactive
SuUR (Suppressor of Under-Replication),DRSC41540,0.103,-2.36,0.583,inactive
CG13894,DRSC23205,0.418,0.367,1.35,inactive
CG13894,DRSC29274,0.778,0.263,0.887,inactive
CG1354,DRSC17902,0.67,-0.422,0.44,inactive
CG32219,DRSC09641,-0.444,-0.22,-0.873,inactive
CG1428,DRSC03708,-0.0936,-5.96,0.0355,inactive
CG17684,DRSC37825,-2.17,-0.251,0.614,inactive
Wwox (WW domain containing oxidoreductase),DRSC03030,1.4,0.905,0.474,inactive
Wwox (WW domain containing oxidoreductase),DRSC22872,-5.76,-2.59,-3.77,active
Wwox (WW domain containing oxidoreductase),DRSC25933,-1.7,-0.158,-0.956,inactive
Rac2,DRSC11262,2.41,1.28,2.2,active
Rac2,DRSC25086,0.506,0.33,1.07,inactive
lncRNA:cherub (cherub),DRSC36550,0.212,1.25,0.176,inactive
lncRNA:cherub (cherub),DRSC36551,-0.225,1.14,0.185,inactive
lncRNA:cherub (cherub),DRSC36552,0.932,-1.71,1.45,inactive
CG2614,DRSC02711,0.49,-1.52,-1.34,inactive
Cyp6a19 (Cytochrome P450 6a19),DRSC07379,-1.5,-0.631,-0.596,inactive

In a second layout: entries from further up.
| gene | DRSC id | Wolbachia per cell robust z, rep 1 | Wolbachia per cell robust z, rep 2 | Wolbachia per cell robust z, rep 3 | call |
| --- | --- | --- | --- | --- | --- |
| CG14024 | DRSC00868 | -1.59 | -1.15 | -3.04 | active |
| CG14024 | DRSC02354 | -1.6 | -3.12 | -1.54 | active |
